Results of unrelated studies side by side (data: NIAID ChemDB).

Common to all: tests in culture; organism: Staphylococcus aureus; endpoint: MIC

An empty or dashed field is not shown. Lines come from different laboratories, so protocols vary.

smiles | strain or isolate | value
CC1CN(c2c(Cl)cc3c(=O)c(C(=O)O)cn(C4CC4)c3c2F)CCN1 | 1756 | 0.5 µg/mL
NC(=O)c1c(F)cccc1SSc1cccc(F)c1C(N)=O | ATCC 6538 | 50 µg/mL
CC(=O)c1cc2c(c(C(C)C)c1O)CC[C@H]1C(C)(C)CCC[C@]21C | - | >32 µg/mL
CCCCn1sc2cccc(C(F)(F)F)c2c1=O | ATCC 6538 | 50 µg/mL
CC1CN(c2c(Cl)cc3c(=O)c(C(=O)O)cn(C4CC4)c3c2Cl)CCN1 | 422 | 0.125 µg/mL
CC[C@H](N)C1CCN(c2c(F)cn3c(=O)c(C(=O)O)cc(C4CC4)c3c2C)C1 | 1775 (ciprofloxacin-resistant) | 0.05 µg/mL
CO[C@H]1/C=C/O[C@@]2(C)Oc3c(C)c(O)c4c(O)c(c5c(c4c3C2=O)NC2(CCN(CC(C)C)CC2)N=5)=NC(=O)/C(C)=C\C=C\[C@H](C)[C@H](O)[C@@H](C)[C@@H](O)[C@@H](C)[C@H](OC(C)=O)[C@@H]1C | Terajima | 0.016 µg/mL
CC1CN(c2c(F)cc3c(=O)c(C(=O)O)cn(C4CC4)c3c2Cl)CCN1 | 133 | 0.06 µg/mL
COC[C@H](N)C1CCN(c2c(F)cn3c(=O)c(C(=O)O)cc(C4CC4)c3c2C)C1 | 1775 (ciprofloxacin-resistant) | 0.05 µg/mL
COc1c(C=O)cc2c(c1C(C)C)CC[C@H]1C(C)(C)CCC[C@]21C | - | >32 µg/mL
CC1CN(c2c(Cl)cc3c(=O)c(C(=O)O)cn(C4CC4)c3c2F)CC(C)O1 | 422 | ≤0.015 µg/mL
CO[C@H]1/C=C/O[C@@]2(C)Oc3c(C)c(O)c4c(O)c(c(/C=N/N5CCN(C)CC5)c(O)c4c3C2=O)NC(=O)/C(C)=C\C=C\[C@H](C)[C@H](O)[C@@H](C)[C@@H](O)[C@@H](C)[C@H](OC(C)=O)[C@@H]1C | ATCC 25923 | 0.016 µg/mL
CC[C@H](NC)C1CCN(c2c(F)cn3c(=O)c(C(=O)O)cc(C4CC4)c3c2C)C1 | 1775 (ciprofloxacin-resistant) | 0.05 µg/mL
CCCCNC(=O)c1cccc(C(F)(F)F)c1SSc1c(C(=O)NCCCC)cccc1C(F)(F)F | ATCC 6538 | 40 µg/mL
O=C(O)c1cn(C2CC2)c2c(F)c(N3CCNCC3)c(Cl)cc2c1=O | 422 | 0.25 µg/mL
Cc1c(N2C[C@@H]3CCCN[C@H]3C2)c(F)cn2c(=O)c(C(=O)O)cc(C3CC3)c12 | CG55 | 0.013 µg/mL
CCCCn1sc2ccc(C(F)(F)F)cc2c1=O | ATCC 6538 | 40 µg/mL
CN1CCN(c2c(Cl)cc3c(=O)c(C(=O)O)cn(C4CC4)c3c2F)CC1 | 422 | 0.025 µg/mL
Cc1c(N2CC[C@H](N)C2)c(F)cn2c(=O)c(C(=O)O)cc(C3CCCC3)c12 | 1775 (ciprofloxacin-resistant) | 50 µg/mL
O=C(O)c1cn(C2CC2)c2c(F)c(N3CCNC(C4CCCCC4)C3)c(Cl)cc2c1=O | 422 | 0.06 µg/mL
CC(C)c1c(O)c(C(C)(C)O)cc2c1CC[C@H]1C(C)(C)CCC[C@]21C | - | 32 µg/mL
O=c1[nH]sc2ccc(C(F)(F)F)cc12 | ATCC 6538 | 15 µg/mL
COc1c(C)cc2c(c1C(C)C)CC[C@H]1C(C)(C)CCC[C@]21C | - | >32 µg/mL
CCCCNC(=O)c1ccc(C(F)(F)F)cc1SSc1cc(C(F)(F)F)ccc1C(=O)NCCCC | ATCC 6538 | 20 µg/mL

Repeating the final 3 entries:

O=c1[nH]sc2ccc(C(F)(F)F)cc12 ; strain or isolate: ATCC 6538 ; value: 15 µg/mL
COc1c(C)cc2c(c1C(C)C)CC[C@H]1C(C)(C)CCC[C@]21C ; value: >32 µg/mL
CCCCNC(=O)c1ccc(C(F)(F)F)cc1SSc1cc(C(F)(F)F)ccc1C(=O)NCCCC ; strain or isolate: ATCC 6538 ; value: 20 µg/mL